Anti-infective test results gathered from many reports (values: NIAID ChemDB through PubChem).

All rows: whole-cell or culture tests; species: Candida albicans; measure: MIC

Two numbers with a dash give a range or band. Lines come from different laboratories, so protocols vary. An empty or dashed field is not shown.

SMILES	strain or isolate	method	value
CCC(C)n1ncn(-c2ccc(N3CCN(c4ccc(OC[C@H]5CO[C@](Cn6cncn6)(c6ccc(Cl)cc6Cl)O5)cc4)CC3)cc2)c1=O	A14060		0.13 µg/mL
CCCCOC(=O)C1(O)CC(OC(C)=O)C(OC(=O)/C=C/c2ccc(OC(C)=O)c(OC)c2)C(OC(C)=O)C1	ATCC 10231		>1000 µg/mL
O=S(Cc1ccccc1)SCCO			16 µg/mL
COC(=O)[C@]1(C)CCC[C@]2(C)c3ccc(C(C)C)cc3-c3[nH]c4ccc([N+](=O)[O-])cc4c3C12	CGMCC 2.2086		31.2 µg/mL
Cc1ccc2occ(C(c3c(O)c4ccccc4oc3=O)c3c(O)c4ccccc4oc3=O)c(=O)c2c1		agar diffusion / agar	25 µg/mL
COc1ccccc1CN=C=S		broth dilution	150 µg/mL
Clc1ccc(-n2ncc(C(c3ccccc3)n3ccnc3)c2-c2ccccc2Cl)c(Cl)c1			33.3 µM
CC(=O)O[C@H]1C[C@@]23COC(=O)/C=C(/C)CC4OC(/C=C/C=C\C(=O)O[C@@H]5C[C@@H](O[C@@H]2C=C1C)[C@@]1(CO1)[C@]53C)[C@@H](C)O4			125 µg/mL
C=C1OC(=O)c2c(OC)cc(OC)c(C)c21	NCPF3135	broth dilution / absorbance	>128 µg/mL
S=C=NCc1ccccc1		broth dilution	30 µg/mL
COC(=O)[C@]1(C)CCC[C@]2(C)c3ccc(C(C)C)cc3-c3[nH]c4ccc(F)cc4c3C12	CGMCC 2.2086		62.5 µg/mL
CC(=O)N1CCN(c2ccc(OC[C@H]3CO[C@](Cn4ccnc4)(c4ccc(Cl)cc4Cl)O3)cc2)CC1	ATCC 90028		0.25 µg/mL
COc1ccc(C(OC)C(O)c2cc(OC)c(OC)c(OC)c2)cc1	ATCC 2091	broth dilution	50 µg/mL
Clc1ccc(COC(Cn2ccnc2)c2ccc(Cl)cc2Cl)cc1	505		<2 µg/mL
CC(C/C=C/C=C/CC/C=C\C=C\CCC(C)(C)C)C(O)C(O)C(O)C(O)C(O)C1OC(=O)C(O)C1O	ATCC 32354 (B311)		25 µg/mL
Cc1ccc(/C=C/C(=O)N2C/C(=C\c3ccccc3)C(=O)/C(=C/c3ccccc3)C2)cc1	1 clinical isolate		>32 µg/mL
COC(=O)[C@]1(C)CCC[C@]2(C)c3ccc(C(C)C)cc3CCC12	CGMCC 2.2086		>100 µg/mL
C[C@H]1[C@H](O)[C@@H](C)/C=C/C=C/C=C/C=C/C=C/C=C/C=C/[C@H](O[C@@H]2O[C@H](C)[C@@H](O)[C@H](N)[C@@H]2O)C[C@@H]2O[C@](O)(C[C@@H](O)C[C@@H](O)CC[C@H](O)[C@@H](O)C[C@@H](O)CC(=O)O[C@H]1C)C[C@H](O)[C@H]2C(=O)O		broth dilution	60 µg/mL
Cc1ccc2nc(N3CCOCC3)c(CC(C#N)c3nc4ccccc4[nH]3)cc2c1	MTCC 227	broth dilution	100 µg/mL
COc1cc2occ(-c3ccc(O)cc3)c(=O)c2c(OC)c1CC=C(C)C	ATCC 2091	broth dilution	12.5 µg/mL
COc1ccc2c(c1OC)C(=O)N1CCc3cc4c(cc3C1C2)OCO4	ATCC 10231		>1000 µg/mL
O=S=Cc1ccccc1			128 µg/mL
COc1ccc2nc(N3CCOCC3)c(CC(C#N)c3nc4ccc(C)cc4[nH]3)cc2c1	MTCC 227	broth dilution	500 µg/mL
C[C@H]1[C@H](O)[C@@H](C)/C=C/C=C/C=C/C=C/C=C/C=C/C=C/[C@H](O[C@@H]2O[C@H](C)[C@@H](O)[C@H](N)[C@@H]2O)C[C@@H]2O[C@](O)(C[C@@H](O)C[C@@H](O)CC[C@H](O)[C@@H](O)C[C@@H](O)CC(=O)O[C@H]1C)C[C@H](O)[C@H]2C(=O)O	ATCC 24433		0.06 µg/mL
COC(=O)[C@]1(C)CCC[C@]2(C)c3ccc(C(C)C)cc3-c3[nH]c4c(C)cccc4c3C12	CGMCC 2.2086		>100 µg/mL
CN(C/C=C/C#CC(C)(C)C)Cc1cccc2ccccc12	81 strains		9.59 µg/mL
Clc1ccc(-n2ncc(C(c3ccccc3)n3ccnc3)c2-c2ccccc2)c(Cl)c1			≥100 µM
CCCCCCCCCCCCCC(CCC(=O)O)C(CCCCCCCCCCCCC)CCC(=O)O			>500 µg/mL
C[C@H](CCC(=O)NCCNCCNC(=O)CC[C@@H](C)[C@H]1CCC2C3CCC4C[C@H](O)CC[C@]4(C)C3C[C@H](C)[C@@]21O)[C@H]1CCC2C3CCC4C[C@H](O)CC[C@]4(C)C3C[C@H](C)[C@@]21O	Isolate 3		0.012 µM
COc1cccc2c1C(=O)C=C(Sc1ccc(Cl)cc1)C2=O			16 µg/mL
CC1=C[C@H]2O[C@@H]3CC4OC(=O)/C=C\C=C\C(C(C)O)OCC[C@H](C)[C@H](C)C(=O)OC[C@@]2(CC1)[C@]4(C)[C@]31CO1			125 µg/mL
O=C1C(Sc2ccccc2)=CC(=O)c2c(O)cccc21			4 µg/mL
C[C@H](NC(=O)[C@H](Cc1ccccc1)NC(=O)[C@@H](N)CCCCN)C(=O)N[C@@H](CCCCN)C(=O)O	10231		>500 µg/mL
COc1ccc(CN=C=S)cc1		broth dilution	1 µg/mL
COc1cccc2c1C(=O)C=C(Sc1ccccc1F)C2=O			8 µg/mL
O=[N+]([O-])c1cnc[nH]1			>50 µM
OC(Cn1cncn1)(Cn1cncn1)c1ccc(F)cc1F	SC5314	resazurin	0.31 µg/mL
CC(C)(C)C(O)(CCc1ccc(Cl)cc1)Cn1cncn1	505		4 µg/mL
COc1ccc2nc(N3CCOCC3)c(/C=C(/C#N)c3nc4ccccc4[nH]3)cc2c1	MTCC 227	broth dilution	1000 µg/mL
N[C@@H](CS(=O)Cc1ccccc1)C(=O)O			256 µg/mL
NC(=O)c1ncn([C@@H]2O[C@H](CO)[C@@H](O)[C@H]2O)c1Cl			0.3 µM
C[C@@H]1[C@H](O)[C@@H](C)/C=C/C=C/CC/C=C/C=C/C=C/C=C/C(O[C@H]2O[C@H](C)[C@@H](O)[C@H](N)[C@@H]2O)CC2O[C@](O)(CC(O)C(O)CCC(O)CC(O)CC(O)CC(=O)O[C@H]1C)CC(O)C2C(=O)O		broth dilution	1500 µM
CCC(C)n1ncn(-c2ccc(N3CCN(c4ccc(OC[C@H]5CO[C@](Cn6cncn6)(c6ccc(Cl)cc6Cl)O5)cc4)CC3)cc2)c1=O			4 µg/mL
COc1cccc2c1C(=O)C(Sc1cccc(F)c1)=CC2=O			16 µg/mL
c1ccc(COc2cccc3cccnc23)cc1			75 µg/mL
c1c[nH]cn1			>50 µM
Cc1ccc2nc(N3CCOCC3)c(CC(C#N)c3nc4ccc(C)cc4[nH]3)cc2c1	MTCC 227	broth dilution	1000 µg/mL
N#CSCc1ccccc1		broth dilution	1250 µg/mL
CC1CCN(CCCCCCSc2ccc(/C=C/C(=O)c3ccccc3)cc2)CC1	PCM 1409 PZH		<237 µM
c1ccc(-c2c(C(c3ccccc3)n3ccnc3)cnn2-c2ccccc2)cc1			22 µM
C=CCc1ccc(O)c(-c2ccc(O)c(CC=C)c2)c1	KCTC 1940		25 µg/mL
OC(Cn1cncn1)(Cn1cncn1)c1ccc(F)cc1F	MTCC 227	broth dilution	>100 µg/mL
C=C1OC(=O)c2c(OC)cc(OC)c(C)c2OC1=C	NCPF3153	broth dilution / absorbance	>128 µg/mL
CCCC(=O)Nc1c2sscc-2n(C)c1=O	IPA200		20 µg/mL
Cc1nn(-c2ccccc2)c2c1C(c1c(O)c3ccccc3oc1=O)c1c(oc3ccccc3c1=O)O2		agar diffusion / agar	50 µg/mL
CCOc1cccc2ccc[n+](CC)c12.[I-]			>100 µg/mL
COC(=O)[C@H]1[C@@H]2C[C@@H](O[C@@H]3O[C@H](C)[C@@H](O)[C@H](N)[C@@H]3O)/C=C/C=C/C=C/C=C/C=C/C=C/C=C/[C@H](C)[C@@H](O)[C@H](C)[C@H](C)OC(=O)C[C@H](O)C[C@H](O)[C@@H](O)CC[C@H](O)C[C@H](O)C[C@](O)(C[C@@H]1O)O2	Clinical isolates		0.5 µg/mL
CCC(C)CC(C)CCCCCCCCC(=O)N[C@H]1C[C@@H](O)[C@H](NCCN)NC(=O)[C@@H]2[C@@H](O)CCN2C(=O)[C@H]([C@H](O)CCN)NC(=O)[C@H]([C@H](O)[C@@H](O)c2ccc(O)cc2)NC(=O)[C@@H]2C[C@@H](O)CN2C(=O)[C@H]([C@@H](C)O)NC1=O	DSY3987	resazurin	0.63 µg/mL
c1ccc(CSCc2ccccc2)cc1			128 µg/mL
COc1cccc2c1C(=O)C(Sc1ccc(C)cc1)=CC2=O			2 µg/mL
Oc1cccc2cccnc12			25 µg/mL
Clc1ccc(CC[C@H](Cn2ccnc2)Sc2c(Cl)cccc2Cl)cc1			6 µg/mL
COc1cccc2c1C(=O)c1c(O)c3c(c(O)c1C2=O)C[C@@](O)(C(=O)CO)C[C@@H]3O[C@H]1C[C@H](N)[C@H](O)[C@H](C)O1			500–1500 µg/mL
OCCSSSCc1ccccc1			128 µg/mL
Cc1ccc(SC2=CC(=O)c3cccc(O)c3C2=O)cc1			4 µg/mL
Nc1[nH]c(=O)ncc1F	ATCC 24433		2 µg/mL
CN(Cc1cnc2nc(N)nc(N)c2n1)c1ccc(C(=O)N[C@@H](CCC(=O)O)C(=O)O)cc1			500–1500 µg/mL
CCCCOC(=O)[C@]1(O)CC(OC(C)=O)[C@@H](OC(C)=O)C(OC(=O)/C=C/c2ccc(OC(C)=O)c(OC)c2)C1	ATCC 10231		>1000 µg/mL
Oc1cccc2oc(-c3ccccc3)cc(=Nc3ccccc3N=c3cc(-c4ccccc4)oc4cccc(O)c34)c12		agar diffusion	50 µg/mL
COc1cc([C@@H]2c3cc4c(cc3[C@@H](O[C@@H]3O[C@@H]5CO[C@@H](C)O[C@H]5[C@H](O)[C@H]3O)[C@H]3COC(=O)[C@H]23)OCO4)cc(OC)c1O			50–100 µg/mL
Cc1ccc(C(=O)/C=C/c2ccc(C(=O)O)cc2)cc1	1 clinical isolate		>32 µg/mL
O=C1C(Sc2ccc(Cl)cc2)=CC(=O)c2c(O)cccc21			2 µg/mL
O=C(/C=C/c1ccc(SCCCCCCN2CCCCC2)cc1)c1ccccc1	PCM 1409 PZH		<246 µM
O=C(O)c1ccc[nH]c1=S	MTCC 183		590 µg/mL
CC(C)=CCC/C(C)=C/CC/C(C)=C/CC[C@@]1(C)[C@H](CCCO)/C(=C(/C)C=O)CC[C@]1(C)O	1066		>50 µg/mL
COC(=O)[C@]1(C)CCC[C@]2(C)c3ccc(C(C)C)cc3C(=O)C[C@@H]12	CGMCC 2.2086		>100 µg/mL
N[C@@H](Cc1ccc(N(CCCl)CCCl)cc1)C(=O)O	1 clinical isolate		>32 µg/mL
CC(=O)Nc1c2sscc-2n(C)c1=O	IPA200		20 µg/mL
C/C=C/C(=O)Oc1cccc2cccnc12			25 µg/mL
O=C1/C(=C\c2ccccc2)CN(C(=O)c2ccc(/C=C/C(=O)c3ccccc3)cc2)C/C1=C/c1ccccc1	1 clinical isolate		>32 µg/mL

Repeating the final 5 entries:

SMILES | strain or isolate | method | value
COC(=O)[C@]1(C)CCC[C@]2(C)c3ccc(C(C)C)cc3C(=O)C[C@@H]12 | CGMCC 2.2086 |  | >100 µg/mL
N[C@@H](Cc1ccc(N(CCCl)CCCl)cc1)C(=O)O | 1 clinical isolate |  | >32 µg/mL
CC(=O)Nc1c2sscc-2n(C)c1=O | IPA200 |  | 20 µg/mL
C/C=C/C(=O)Oc1cccc2cccnc12 |  |  | 25 µg/mL
O=C1/C(=C\c2ccccc2)CN(C(=O)c2ccc(/C=C/C(=O)c3ccccc3)cc2)C/C1=C/c1ccccc1 | 1 clinical isolate |  | >32 µg/mL